Measured values reported in PMC7034072, “Discovery of small molecule inhibitors of Leishmania braziliensis Hsp90 chaperone” (Journal of Enzyme Inhibition and Medicinal Chemistry, 2020).

Test system: promastigote forms of L. braziliensis
Assay: In vitro IC50 determination (leishmanicidal activity, MTT/PMS)
Format: cell-based
Settings: ratio of IC50 against mammalian cells and IC50 against promastigote cells
Experimental: Amphotericin 100 μM/well and 0.5% DMSO were used as positive and negative control, respectively. The plates were incubated at RT for 72 h. After this, the viability of the promastigotes was verified by MTT/PMS colorimetric assay, as described above. In vitro leishmanicidal activity, expressed as IC50, was determined using GraphPad Prism 5 software according to the following equation: (2) y= Amin + Amax−Amin/1+10^logIC50 −x*Hillslope where Amin and Amax are, respectively, the minimum and maximum activities obtained, x is the ligand concentration and Hill Slope is the parameter that describes the steepness of the curve.
The selectivity index parameter was obtained by the ratio of compound IC50 against mammalian cells and compound IC50 against promastigote cells.

N=C(N)Nc1nc(-c2ccccc2)c2ccccc2n1 [Glb08]
Selectivity index: 1.7

N=C(N)NCc1cn(-c2ccccc2)nc1-c1ccccc1 [Glb14]
Selectivity index: >6.7

N=C(N)NN=Cc1cnn(Cc2ccccc2)c1 [Glb15]
Selectivity index: >2.8

N=C(N)NCc1ccc(Oc2ccc(F)cc2)cc1 [Glb16]
Selectivity index: 1.9

Cc1cccc(Oc2ccccc2CNC(=N)N)c1 [Glb17]
Selectivity index: 14.5

N=C(N)SCc1nc2ccccc2c(=O)n1-c1ccccc1 [Glb23]
Selectivity index: <0.5

Cc1cc(CSC(=N)N)c2oc(-c3ccccc3)cc(=O)c2c1 [Glb25]
Selectivity index: <0.05

N=C(N)NN=Cc1ccc2cccc(OCc3ccccc3)c2n1 [Glb27]
Selectivity index: 1.2
